In paper PMC5520654 (Journal of immunology (Baltimore, Md. : 1950), 2017):

Conditions: 20 h incubation, Supplemental Figure 1

CB-TE1A1P-PEG4-LLP2A [^64Cu-LLP2A]
stability in macaque serum (decomposition or free copper): no decomposition or free copper
